Values from PubChem BioAssay AID1224833 (University of Georgia, 2016)

Assay: 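Human genes whose knock-down alters rotavirus replication in monkey cells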 (primary screen)
Cells: monkey MA104 kidney cells
Knock-down reagent: siRNA pool against human genes, 50 nM
Duration: 48 h knock-down before infection; read 24 h after infection
Treatment: infection with rotavirus strain RV3 two days after transfection; infectious dose for this stage not given
Detection: 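z-score of rotavirus antigen signal per well, from a fluorescent immunoassay, relative to non-targeting control wells on the same plate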
Direction: z-score vs non-targeting control: higher = more rotavirus replication than with non-targeting control
Rule for the call: In these data the active calls have z-score vs non-targeting control at about -1 or lower, or at about 1 or higher
Calls: active = z-score beyond 1 either way; inactive = z-score within 1 of zero
Shown is an unselected part of about 12,000 reagents tested. Of all reagents, about 5,600 (46%) were called active. 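Active calls cover z-scores past 1 in both directions, so they include lowered as well as raised rotavirus replication.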

gene symbol	z-score vs non-targeting control	activity call
MRPL16	-0.916	inactive
NTN4	-0.319	inactive
UNC5A	-1.59	active
SELL	-0.87	inactive
TCF4	-0.974	inactive
GPR137	0.202	inactive
ACOT11	0.934	inactive
PKHD1	-0.577	inactive
VAX2	-2.47	active
PPP1R9B	0.153	inactive
PLEKHB2	-1.4	active
OR51G1	-1.15	active
TIGD7	-1.6	active
TBC1D29P	-0.704	inactive
SUPT6H	1.45	active
TRAP1	-1.02	active
SEPTIN11	0.574	inactive
NOVA2	0.319	inactive
TP53INP1	-1.99	active
AIP	2.34	active
CPOX	-1.26	active
ARL6IP1	0.639	inactive
ZGPAT	3.43	active
IMPDH2	-1.41	active
LCE6A	0.564	inactive
EXD1	-0.988	inactive
ALOX15B	-2.27	active
CPLX2	-0.46	inactive
TGOLN2	-1.88	active
FAM3A	-0.424	inactive
SEPTIN2	0.052	inactive
OBSL1	-1.03	active
LXN	0.167	inactive
YBX1	-0.987	inactive
PPT2	-1.69	active
BSDC1	1.01	active
WAPL	0.221	inactive
KDM4C	1.84	active
LRRC24	0.0634	inactive
CCHCR1	0.0115	inactive
RTEL1	-1.42	active
TSPY1	0.885	inactive
HS2ST1	-0.587	inactive
AP3M1	-0.532	inactive
NUDT21	-2.73	active
